Compound potency records, mixed from different reports. Data source: NIAID ChemDB in PubChem.

All rows: tests in culture; agent: HIV-1; cell line: CEM + CEM-SS; read-out: EC50

Blank or dashed fields: not listed here. ECn: concentration that inhibits the pathogen or its effect by n%. Rows are shuffled and stem from different studies.

structure	strain	mutations	read by	result
CCCc1cc(=O)oc2c3c(c4c(c12)OC(C)(C)C=C4)O[C@@H](C)[C@H](C)[C@@H]3O	Pyridinone-resistant (RT K103N Y181C)	RT-K103N Y181C	cytopathic effect / XTT	0.8 µM
CCc1c(Sc2ccccn2)n(COCc2ccccc2)c(=O)[nH]c1=O	IIIB	RT-Y181C	cytopathic effect / XTT	2.2 µM
C/C=C/CSc1cc(NC(=S)c2ccsc2C)ccc1Cl	UC040-R (RT-Y181C)	RT-Y181C	cytopathic effect / XTT	>2 µM
CC(C)=CCN1Cc2cccc3[nH]c(=S)n(c23)C[C@@H]1C	IIIB	RT-Y181C	cytopathic effect / XTT	4.3 µM
Cc1occc1C(=S)Nc1ccc(Cl)c(/C=N/OC(C)(C)C)c1	NL4-3 (RT Y181C)	RT-Y181C	cytopathic effect / XTT	0.5 µM
CCc1c(C(=O)c2cc(C)cc(C)c2)n(CC2CC=CC2)c(=O)[nH]c1=O	4xAZT(RT-D67N K70R T215Y K219Q)	RT-D67N K70R T215Y K219Q	cytopathic effect / XTT	0.0006 µM
Cc1ccnc2c1NC(=O)c1cccnc1N2C1CC1	4XAZT+Y181C (RT D67N K70R Y181C T215Y K219Q)	RT-D67N K70R Y181C T215Y K219Q	cytopathic effect / XTT	0.8 µM
Cc1ccnc2c1NC(=O)c1cccnc1N2C1CC1	E BPTU-resistant (RT Y181C)	RT-Y181C	XTT	1.9 µM
Cc1ccnc2c1NC(=O)c1cccnc1N2C1CC1	4xAZT	-	cytopathic effect / XTT	0.02 µM
CCCc1cc(=O)oc2c3c(c4c(c12)OC(C)(C)C=C4)O[C@H](C)[C@@H](C)[C@@H]3O	NL4-3(RT-4XAZT+Y181C)	RT-D67N K70R Y181C T215Y K219Q	XTT	0.01 µM
Cc1cn([C@H]2C[C@H](N=[N+]=[N-])[C@@H](CO)O2)c(=O)[nH]c1=O	LAV	-	cytopathic effect / MTT	0.005 µM
Cc1cn([C@H]2C[C@H](N=[N+]=[N-])[C@@H](CO)O2)c(=O)[nH]c1=O	E BPTU-resistant (RT Y181C)	RT-Y181C	XTT	0.03 µM
Cc1c(Sc2ccccc2)n(COCCO)c(=O)[nH]c1=O	IIIB	RT-K103N Y181C	cytopathic effect / XTT	>325 µM
CCCc1cc(=O)oc2c3c(c4c(c12)OC(C)(C)C=C4)O[C@@H](C)[C@H](C)[C@@H]3O	UC040-R (RT-Y181C)	RT-Y181C	cytopathic effect / XTT	<0.08 µM
CC(C)=CCN1Cc2cccc3[nH]c(=S)n(c23)C[C@@H]1C	Dihydrocostatolide-resistant (RT-L100I)	RT-L100I	XTT	11.7 µM